Compound potency records, mixed from different reports. Data source: NIAID ChemDB in PubChem.

Shared fields: whole-cell or culture tests; agent: Mycobacterium avium; read-out: MIC

Lines come from different laboratories, so protocols vary. An empty or dashed field is not shown.

SMILES,strain,changes,method,setting,value
O=C(Nc1cccc(F)c1)c1ccc(Cl)cc1OS(=O)(=O)c1ccccc1,330/88,-,-,14 d,500 µM
O=C(Nc1cncs1)c1ccccc1O,MY330/88,-,-,-,250 µM
O=C(Nc1ccc(Cl)cc1)c1ccc(Cl)cc1OS(=O)(=O)c1ccccc1,330/88,-,-,14 d,8 µM
Cc1ccc(C(=O)Nn2c(C)nc3scc(-c4ccco4)c3c2=O)cc1,CNCTC MY330/88,-,-,-,40 µM
O=C(NCc1ccc(C(F)(F)F)cc1)c1c(O)cc(Br)cc1Br,MY330/88,-,-,-,62.5 µg/mL
Cc1nc2scc(-c3ccco3)c2c(=O)n1/N=C/c1ccco1,CNCTC MY330/88,-,-,-,62 µM
c1ccc(-c2ccc(CNc3ccc(N4CCOCC4)cc3)cc2)cc1,103317,-,-,-,11.2 µM
O=c1oc2ccc(F)cc2c(=S)n1-c1ccccc1,MY330/88,-,-,14 d,16 µM
O=C(Oc1ccc(Cl)cc1C(=O)Nc1cccc(F)c1)c1cnccn1,330/88,-,-,14 d,8 µM
O=C(Nc1ccc(F)cc1)c1ccccc1O,CNCTC MY330/88,-,-,-,31 µM
O=C(Nc1ccc(Cl)c(Cl)c1)c1cc(Cl)ccc1OS(=O)(=O)c1ccccc1,330/88,-,-,21 d,16 µM
O=C(Nc1cncs1)c1cc(Br)ccc1O,MY330/88,-,-,-,125 µM
FC(F)(F)c1nc2c(Cl)cc(Cl)cc2[nH]1,MY330/88,-,-,-,62.5 µM
Cc1ccc2oc(=S)n(-c3ccc(F)cc3)c(=S)c2c1,MY330/88,-,-,21 d,4 µM
O=C(Oc1cc(Cl)ccc1C(=O)Nc1ccc(Br)cc1)c1cnccn1,330/88,-,-,14 d,4 µM
O=c1oc2ccc(F)cc2c(=S)n1-c1ccc(Cl)c(Cl)c1,MY330/88,-,-,21 d,8 µM
COc1ccc(NC(=O)c2ccccc2O)cc1,CNCTC MY330/88,-,-,-,62.5 µM
CCc1nc2ccc(Cl)cn2c1C(=O)NCc1ccc(N2CCSCC2)c(F)c1,A5,-,resazurin,-,>1 µg/mL
Cc1nc2scc(-c3ccco3)c2c(=O)n1NC(=O)c1ccc([N+](=O)[O-])cc1,CNCTC MY330/88,-,-,-,6 µM
CC(C)(C)c1ccc(COC(Cn2ccnc2)c2ccc(Cl)cc2)cc1,103317,-,-,-,2.71 µM
Fc1ccccc1CSc1ncn[nH]1,MY330/88,-,-,-,500 µM
Cc1nc2scc(-c3ccco3)c2c(=O)n1/N=C/c1ccc(Cl)cc1,CNCTC MY330/88,-,-,-,10 µM
CC[C@H]1OC(=O)[C@H](C)C(=O)[C@H](C)[C@@H](O[C@@H]2O[C@H](C)C[C@H](N(C)C)[C@H]2O)[C@](C)(OC)C[C@@H](C)C(=O)[C@H](C)[C@H]2N(CCCCn3cnc(-c4cccnc4)c3)C(=O)O[C@]12C,ATCC 25291,-,-,-,5 µg/mL
Cc1cc(NC(=O)c2ccccc2O)no1,MY330/88,-,-,-,62.5 µM
O=C(Oc1ccc(Cl)cc1C(=O)Nc1ccc(Cl)cc1)c1cnccn1,330/88,-,-,21 d,8 µM
CCCCCCCCCOc1ccccc1NC(=O)OCCN1CCCCC1,MY330/88,-,-,-,32 µM
O=c1oc2ccc(Br)cc2c(=O)n1-c1cccc(Cl)c1,CNCTC MY330/88,-,-,-,16 µM
COc1ccc(NC(=O)c2ncccc2S)cc1,CNCTC MY330/88,-,-,-,16 µM
FC(F)(F)C(F)(F)C(F)(F)c1nc2c(Br)c(Br)c(Br)c(Br)c2[nH]1,MY330/88,-,-,-,62.5 µM
Cc1nc2scc(-c3ccco3)c2c(=O)n1/N=C/C1CC1,CNCTC MY330/88,-,-,-,59 µM
Fc1ccc2oc(=S)n(-c3ccc(C(F)(F)F)cc3)c(=S)c2c1,MY330/88,-,-,21 d,32 µM
FC(F)(F)C(F)(F)C(F)(F)C(F)(F)c1nc2cc(Cl)c(Cl)cc2[nH]1,MY330/88,-,-,-,8 µM
O=c1oc2ccc(Br)cc2c(=O)n1-c1cccc(F)c1,CNCTC MY330/88,-,-,-,31 µM
O=C(Oc1ccc(Cl)cc1C(=O)Nc1cccc(C(F)(F)F)c1)c1cnccn1,330/88,-,-,21 d,32 µM
Clc1ccc(/C(Cn2ccnc2)=N/OC/C=C/c2ccccc2)c(Cl)c1,103317,-,-,-,20.7 µM
O=c1oc2ccc(Cl)cc2c(=S)n1-c1cccc(F)c1,MY330/88,-,-,14 d,32 µM
Cc1ccc(O)c(C(=S)NCc2cccc([N+](=O)[O-])c2)c1,MY330/88,-,-,-,1 µg/mL
CC(C)N=C(N)/N=C(\N)NOCCCOc1cc(Cl)c(Cl)cc1Cl,LPR,-,-,-,38.4 µg/mL
O=c1oc2cc(Cl)ccc2c(=O)n1-c1ccc(Cl)c(Cl)c1,CNCTC MY330/88,-,-,-,8 µM
CCOc1ccccc1NC(=O)OCCN1CCCCC1,MY330/88,-,-,-,1000 µM
Cc1ccc2oc(=S)n(-c3ccccc3)c(=S)c2c1,MY330/88,-,-,21 d,4 µM
Clc1ccc(C(Cn2ccnc2)NCc2cccc3ccccc23)c(Cl)c1,103317,-,-,-,80.8 µM
CCCCCCCCCCOc1ccccc1NC(=O)OCC[NH+]1CCCC1,MY330/88,-,-,-,16 µM
c1ccc(-c2ccc(CNc3ccccc3-n3ccnc3)cc2)cc1,103317,-,-,-,23.6 µM
Cc1ccc(CNC(=S)c2ccccc2O)cc1,MY330/88,-,-,-,0.25 µg/mL
N#Cc1ccc(-n2c(=O)oc3ccc(Br)cc3c2=O)cc1,CNCTC MY330/88,-,-,-,8 µM
O=C(NCc1cccc(C(F)(F)F)c1)c1ccccc1O,MY330/88,-,-,-,16 µg/mL
O=C(Nc1cccc(Cl)c1)c1ncccc1O,CNCTC MY330/88,-,-,-,32 µM
O=c1oc2ccc(F)cc2c(=O)n1-c1ccc(Cl)c(Cl)c1,CNCTC MY330/88,-,-,-,8 µM
c1ccc(-c2ccc(CNc3ccc(-n4ccnc4)cc3)cc2)cc1,103317,-,-,-,23.6 µM
O=c1oc2ccc(Cl)cc2c(=O)n1-c1ccc(Cl)c(Cl)c1,CNCTC MY330/88,-,-,-,8 µM
Cc1ccn2c(C(=O)NCc3ccc(N4CCN(c5ccc(C(F)(F)F)cc5)CC4)c(F)c3)c(C)nc2c1,104,Gentamicin-resistant,resazurin,-,<0.0078 µg/mL
O=c1oc2ccc(F)cc2c(=O)n1-c1cccc(Cl)c1,CNCTC MY330/88,-,-,-,31 µM
O=C(Nc1cccc(Cl)c1)c1ncccc1S,CNCTC MY330/88,-,-,-,62.5 µM
O=C(Oc1cc(Cl)ccc1C(=O)Nc1ccc(Cl)c(Cl)c1)c1cnccn1,330/88,-,-,14 d,8 µM
Cc1ccc2nc(C(F)(F)F)c(C(=O)NCc3ccc4c(c3)CCO4)n2c1,101,-,resazurin,-,<2 µM
COc1ccc(C(=O)Nc2cnccn2)c(O)c1,MY330/88,-,-,-,250 µM
O=C(NCc1cccc(Cl)c1)c1ncccc1O,CNCTC MY330/88,-,-,-,125 µM
N#Cc1cccc(CSc2ncn[nH]2)c1,MY330/88,-,-,-,1000 µM
Cc1cccc(C(N)=Nc2nc(-c3ccccn3)cc3ccccc23)c1,1908-3,-,-,-,2 µg/mL
Clc1ccc2c(c1)nc1cc(Nc3ccccc3)c(=NC3CCCCC3)cc-1n2-c1ccccc1,18698,-,-,-,0.7 µg/mL
O=c1oc2ccc(Br)cc2c(=S)n1-c1ccc(Cl)cc1,MY330/88,-,-,14 d,16 µM
NNC(=O)c1ccncc1,MY330/88,-,-,-,>250 µg/mL
Clc1ccc(CNc2cccc(-n3ccnc3)c2)cc1,103317,-,-,-,13.4 µM
Cc1ccc(CNC(=S)c2ccc([N+](=O)[O-])cc2O)cc1,MY330/88,-,-,-,>125 µg/mL
Cc1ccc(NC(=O)c2ncccc2S)cc1,CNCTC MY330/88,-,-,-,32 µM
Cc1ccn2c(C(=O)NCc3ccc(Oc4cccc(C(F)(F)F)c4)cc3)c(C)nc2c1,2151,-,resazurin,-,<2 µM
Clc1cccc(CSc2ncn[nH]2)c1,MY330/88,-,-,-,500 µM
O=C(Nc1cccc(C(F)(F)F)c1)c1cc(Cl)ccc1OS(=O)(=O)c1ccccc1,330/88,-,-,14 d,62.5 µM
Cc1ccc(C(=O)Nn2cncn2)c(O)c1,MY330/88,-,-,-,1000 µM
Cc1cn2c(C(=O)NCc3ccc(N4CCC(c5ccc(OC(F)(F)F)cc5)CC4)cc3)c(C)nc2s1,2151,-,resazurin,-,<2 µM
O=C(NCc1cccc([N+](=O)[O-])c1)c1ncccc1O,CNCTC MY330/88,-,-,-,125 µM
COc1ccccc1NC(=O)OCCN1CCCCC1,MY330/88,-,-,-,500 µM
Oc1ccccc1C(=S)NCc1cccc(Cl)c1,MY330/88,-,-,-,1 µg/mL
O=[N+]([O-])c1ccc(Sc2nc3c(Br)cc(Br)cc3[nH]2)c([N+](=O)[O-])c1,MY330/88,-,-,-,1000 µM
FC(F)(F)c1cc(CSc2ncn[nH]2)cc(C(F)(F)F)c1,MY330/88,-,-,-,1000 µM

Repeating the final 4 entries:

SMILES,strain,changes,method,setting,value
COc1ccccc1NC(=O)OCCN1CCCCC1,MY330/88,-,-,-,500 µM
Oc1ccccc1C(=S)NCc1cccc(Cl)c1,MY330/88,-,-,-,1 µg/mL
O=[N+]([O-])c1ccc(Sc2nc3c(Br)cc(Br)cc3[nH]2)c([N+](=O)[O-])c1,MY330/88,-,-,-,1000 µM
FC(F)(F)c1cc(CSc2ncn[nH]2)cc(C(F)(F)F)c1,MY330/88,-,-,-,1000 µM